One may read the IC50 as the point on the concentration scale where inhibition reaches its midpoint. Low values mean inhibition by little substance, high ones a need for much substance.

The values that follow come from article PMC9654784, “Targeting SARS-CoV-2 nsp13 Helicase and Assessment of Druggability Pockets: Identification of Two Potent Inhibitors by a Multi-Site In Silico Drug Repurposing Approach” (Molecules, 2022).

Assay [1] deals with T1, SARS-CoV-2 nsp13 (Severe acute respiratory syndrome coronavirus 2, UniProt P0DTD1). In words: SARS-CoV-2 nsp13 unwinding-associated activity. It is filed as biochemical. The settings on record: concentration required to inhibit nsp13-associated unwinding activity by 50%; 1 nM nsp13, 1 mM ATP, 750 nM DNA substrate. As for the experimental part: (§1) The SARS-CoV-2 nsp13 his-tagged was expressed in E. coli BL21 Rosetta 2 cells from a pNIC-ZB (addgene #159614). A purification protocol was adopted from Newman et al.. Terrific Broth media was used to culture the cells at 37 °C and at 200 rpm until 1.6 OD600. Then, protein expression was induced with […] for 16 h at 18 °C, at 200 rpm, and then pelleted and resuspended in lysis buffer (50 mM HEPES pH 7.5, 500 mM NaCl, 5% Glycerol, 10 mM Imidazole, 0.5 mM TCEP, Merck Protease inhibitor cocktail III, 1:500). After sonication and clarification at 15,000× g for 30 min, the crude extract was used for a batch binding of 40 min in a three-dimensional rotating mixer with 5 mL of Ni-sepharose (cytiva) under orbital. […] The elution fraction was analyzed for purity by SDS page, and clean fractions were pooled and dialyzed against a desalting buffer containing 25 mM HEPES pH 7.5, 250 mM NaCl, 20% Glycerol, and 0.25 mM TCEP. […]
The SARS-CoV-2 nsp13 unwinding-associated activity was measured in black 384-well plates (PerkinElmer). […] Compounds SSYA10-001 and Licoflavone C were used as positive controls of inhibition; the reaction lasted for 15 min at 37 °C, and then the products were measured with Victor Nivo (Perkin) at 530/580 nm.

The target of assay [2] is T1, SARS-CoV-2 nsp13. Kind of assay: SARS-CoV-2 nsp13 ATPase (NTPase)-associated activity. It is filed as biochemical. The settings on record: concentration required to inhibit nsp13-associated ATPase activity by 50%; 25 nM nsp13, 400 µM ATP. As for the experimental part: as §1, with “orbital. Then, the tubes were centrifuged at 700× g at 4 °C for 5 min, and the resin was loaded onto a gravity flow column (econo column BioRad) connected to a BioLogic LP (BioRad).” for “orbital.”
The SARS-CoV-2 nsp13 helicase-associated activity was measured in a transparent 96-well plate (PerkinElmer), as described in [34]. […] The products were measured with Victor Nivo (Perkin) at 650 nm.

Turning to “nicotinamide adenine dinucleotide [NADH]”, the IC50 at SARS-CoV-2 nsp13 [1] and at SARS-CoV-2 nsp13 [2] was greater than 30 µM throughout.
